Among the data in US20250353853A1, “FLAVIVIRUS INHIBITORS” (IRBM S.P.A., priority 2022, published 2025) are IC50 values, retold here.

Structures can show the parent of a compound that is named as a salt.

The assay has as its target DEN2V NS2B-G4SG4-NS3 serine protease (Dengue virus type 2 (DENV-2), UniProt Q91H74). Put plainly: DEN2V Protease Inhibition Assay.
The IC50 is the concentration that gives 50% inhibition. A high value points to lower potency. `O=C([N-]c1c[n+](Cc2csc(-c3cncnc3)c2)no1)Nc1cccc(C(F)(F)F)c1` [Example 100, (3-((5-(pyrimidin-5-yl)thiophen-3-yl)methyl)-1,2,3-oxadiazol-3-ium-5-yl)((3-(trifluoromethyl)phenyl)carbamoyl)amide] yielded an IC50 of 1 to 20 µM.
Turning to `Cc1cc(C[n+]2cc([N-]C(=O)Nc3cccc(C(F)(F)F)c3)on2)ccc1-c1cncnc1` [Example 87, (3-(3-methyl-4-(pyrimidin-5-yl)benzyl)-1,2,3-oxadiazol-3-ium-5-yl)((3-(trifluoromethyl)phenyl)carbamoyl)amide], the IC50 was 1 to 20 µM.
The result for `Cn1cc(-c2cccc(C[n+]3cc([N-]C(=O)Nc4cccc(C(F)(F)F)c4)on3)c2)cn1` [Example 52, (3-(3-(1-methyl-1H-pyrazol-4-yl)benzyl)-1,2,3-oxadiazol-3-ium-5-yl)((3-(trifluoromethyl)phenyl)carbamoyl)amide] reads 1 to 20 µM.
`O=C([N-]c1c[n+](Cc2ccc(-c3cnn(C4CCNCC4)c3)nc2)no1)Nc1cccc(C(F)(F)F)c1` [Example 117, (3-((6-(1-(piperidin-4-yl)-1H-pyrazol-4-yl)pyridin-3-yl)methyl)-1,2,3-oxadiazol-3-ium-5-yl)((3-(trifluoromethyl)phenyl)carbamoyl)amide] registered a half-inhibitory concentration (IC50) of 1 to 20 µM.
`N#Cc1ncncc1-c1ccc(C[n+]2cc([N-]C(=O)Nc3cccc(C(F)(F)F)c3)on2)cc1` [Example 106, (3-(4-(4-cyanopyrimidin-5-yl)benzyl)-1,2,3-oxadiazol-3-ium-5-yl)((3-(trifluoromethyl)phenyl)carbamoyl)amide] displayed an IC50 of 1 to 20 µM.
Consider `Cc1cnncc1-c1ccc(C[n+]2cc([N-]C(=O)Nc3cccc(C(F)(F)F)c3)on2)cc1` [Example 93, (3-(4-(5-methylpyridazin-4-yl)benzyl)-1,2,3-oxadiazol-3-ium-5-yl)((3-(trifluoromethyl)phenyl)carbamoyl)amide], for which the 50% inhibitory concentration (IC50) lay in the range of 1 to 20 µM.
The compound `Cn1cc(-c2ccc(C[n+]3cc([N-]C(=O)Nc4cccc(C(F)(F)F)c4)on3)cc2)cn1` [Example 23, (3-(4-(1-methyl-1H-pyrazol-4-yl)benzyl)-1,2,3-oxadiazol-3-ium-5-yl)((3-(trifluoromethyl)phenyl)carbamoyl)amide] registered a half-inhibitory concentration (IC50) of 1 to 20 µM.
The result for `Cc1ncnc(C)c1-c1ccc(C[n+]2cc([N-]C(=O)Nc3ccnc(C(F)(F)F)c3)on2)cc1` [Example 185, (3-(4-(4,6-dimethylpyrimidin-5-yl)benzyl)-1,2,3-oxadiazol-3-ium-5-yl)((2-(trifluoromethyl)pyridin-4-yl)carbamoyl)amide] reads 1 to 20 µM.
The result for `Cc1noc(C)c1-c1ccc([C@H](CN)[n+]2cc([N-]C(=O)Nc3cccc(C(F)(F)F)c3)on2)cc1` [Example 99, (R)-(3-(2-amino-1-(4-(3,5-dimethylisoxazol-4-yl)phenyl)ethyl)-1,2,3-oxadiazol-3-ium-5-yl)((3-(trifluoromethyl)phenyl)carbamoyl)amide formate] reads 1 to 20 µM.
Under `Cc1ncnc(C)c1-c1ccc(C[n+]2cc([N-]C(=O)Nc3cccc(C(F)(F)F)c3)on2)cc1` [Example 81, (3-(4-(4,6-dimethylpyrimidin-5-yl)benzyl)-1,2,3-oxadiazol-3-ium-5-yl)((3-(trifluoromethyl)phenyl)carbamoyl)amide] stands 0.1 to 1 µM; under `Cc1ncnc(OCCO)c1-c1ccc(C[n+]2cc([N-]C(=O)Nc3cccc(C(F)(F)F)c3)on2)cc1` [Example 112, (3-(4-(4-(2-hydroxyethoxy)-6-methylpyrimidin-5-yl)benzyl)-1,2,3-oxadiazol-3-ium-5-yl)((3-(trifluoromethyl)phenyl)carbamoyl)amide], 1 to 20 µM.
In the case of `NC[C@H](Cc1ccc(-c2ccccc2)cc1)[n+]1cc([N-]C(=O)Nc2cccc(C(F)(F)F)c2)on1` [Example 65, (S)-(3-(1-([1,1′-biphenyl]-4-yl)-3-aminopropan-2-yl)-1,2,3-oxadiazol-3-ium-5-yl)((3-(trifluoromethyl)phenyl)carbamoyl)amide formate], the IC50 lay within 1 to 20 µM.
Under `O=C([N-]c1c[n+](Cc2ccc(-c3ccc(CN4CCOCC4)cc3)cc2)no1)Nc1cccc(C(F)(F)F)c1` [Example 56, (3-((4′-(morpholinomethyl)-[1,1′-biphenyl]-4-yl)methyl)-1,2,3-oxadiazol-3-ium-5-yl)((3-(trifluoromethyl)phenyl)carbamoyl)amide] stands 1 to 20 µM.
Under `Cc1nn(C)cc1-c1ccc(C[n+]2cc([N-]C(=O)Nc3cccc(C(F)(F)F)c3)on2)cc1` [Example 96, (3-(4-(1,3-dimethyl-1H-pyrazol-4-yl)benzyl)-1,2,3-oxadiazol-3-ium-5-yl)((3-(trifluoromethyl)phenyl)carbamoyl)amide] stands 1 to 20 µM; under `O=C([N-]c1c[n+](Cc2ccc(-c3cncnc3C(F)(F)F)cn2)no1)Nc1cncc(C(F)(F)F)c1` [Example 137, ((5-(trifluoromethyl)pyridin-3-yl)carbamoyl)(3-((5-(4-(trifluoromethyl)pyrimidin-5-yl)pyridin-2-yl)methyl)-1,2,3-oxadiazol-3-ium-5-yl)amide], 1 to 20 µM; under `C[C@H](c1ccc(-c2cncnc2)cc1)[n+]1cc([N-]C(=O)Nc2cncc(C(F)(F)F)c2)on1` [Example 75, (R)-(3-(1-(4-(pyrimidin-5-yl)phenyl)ethyl)-1,2,3-oxadiazol-3-ium-5-yl)((5-(trifluoromethyl)pyridin-3-yl)carbamoyl)amide], 1 to 20 µM.
The result for `COc1ncnc(C)c1-c1ccc(C[n+]2cc([N-]C(=O)Nc3cccc(C(F)(F)F)c3)on2)cc1` [Example 111, (3-(4-(4-methoxy-6-methylpyrimidin-5-yl)benzyl)-1,2,3-oxadiazol-3-ium-5-yl)((3-(trifluoromethyl)phenyl)carbamoyl)amide] reads 0.1 to 1 µM; that for `Cc1nc(OCCN(C)C)ncc1-c1ccc(C[n+]2cc([N-]C(=O)Nc3cccc(C(F)(F)F)c3)on2)nc1` [Example 43, (3-((5-(2-(2-(dimethylamino)ethoxy)-4-methylpyrimidin-5-yl)pyridin-2-yl)methyl)-1,2,3-oxadiazol-3-ium-5-yl)((3-(trifluoromethyl)phenyl)carbamoyl)amide], 1 to 20 µM; that for `Cc1noc(C)c1-c1ccc([C@@H](CN)[n+]2cc([N-]C(=O)Nc3cccc(C(F)(F)F)c3)on2)cc1` [Example 116, (S)-(3-(2-amino-1-(4-(3,5-dimethylisoxazol-4-yl)phenyl)ethyl)-1,2,3-oxadiazol-3-ium-5-yl)((3-(trifluoromethyl)phenyl)carbamoyl)amide formate], 1 to 20 µM.
`Cc1ncncc1-c1cccc(C[n+]2cc([N-]C(=O)Nc3cccc(C(F)(F)F)c3)on2)c1` [Example 83, (3-(3-(4-methylpyrimidin-5-yl)benzyl)-1,2,3-oxadiazol-3-ium-5-yl)((3-(trifluoromethyl)phenyl)carbamoyl)amide]: the IC50 is 1 to 20 µM.
The result for `Cc1ncncc1-c1ccc([C@H](C)[n+]2cc([N-]C(=O)Nc3cccc(C(F)(F)F)c3)on2)cc1` [Example 79, (S)-(3-(1-(4-(4-methylpyrimidin-5-yl)phenyl)ethyl)-1,2,3-oxadiazol-3-ium-5-yl)((3-(trifluoromethyl)phenyl)carbamoyl)amide] reads 1 to 20 µM.
